Only a part is listed here, and it is no random draw. Calls of active or inactive are those of the source. No stated cut-off is given here; in the data, active means fluorescence intensity above about 16000; inconclusive means no clear call, values can overlap the other calls; inactive means below that.

A short description of this assay: counter-screen for toxin protease inhibitors: compound fluorescence, primary screen, artefact control for toxin protease inhibitor project, biochemical, multiplex microsphere, HTS (AID 624483). Further: test concentration not given here. To be noted: compound autofluorescence counterscreen, microsphere flow cytometry; stronger effect = higher value. (Counterscreens check selectivity or assay interference.)
Consider `CCCCOc1ccc(C(=O)NCC2(N3CCOCC3)CCCCC2)cc1`, for which the fluorescence intensity was inactive: 4680. With `CCCCn1nnnc1C(c1cc2ccccc2o1)N1CCC(n2c(=O)[nH]c3ccccc32)CC1` (stereo unspecified) the figure was inactive: 5810; with `O=P1(N(CCCl)CCCl)SCCCS1`, inactive: 4320. To `O=C(NCC1(N2CCCCC2)CCCCC1)c1ccc(F)cc1` belongs inactive: 5510; to `CCOC(=O)N1CCC(Nc2ccc(F)cc2)CC1`, inactive: 4060. For `COc1ccc(NC2CCN(CCc3ccccc3)CC2)c(OC)c1`, the fluorescence intensity was inactive: 8160. To `CCOc1ccc(C)cc1CN(CCCl)CCCl` belongs inactive: 6490; to `CC(C)(C)n1nnnc1C(c1ccccc1)N1CCC(n2c(=O)[nH]c3ccccc32)CC1` (stereo unspecified), inactive: 5520. To `O=C1CCN(Cc2ccccc2)CC1` belongs inactive: 9600; to `O=c1[nH]c2ccccc2n1C1CCN(C(c2cccc3ccccc23)c2nnnn2C2CCCC2)CC1` (stereo unspecified), inactive: 6120; to `CCOC(=O)N1CCC(Nc2cccc(C)c2)CC1`, inactive: 3570.

As to `COc1cc(C(=O)NCC2(N(C)C)CCCCC2)ccc1OC(F)F`, the fluorescence intensity was inactive: 3110. In the case of `O=c1[nH]c2ccccc2n1C1CCN(C(c2ccccc2)c2nnnn2C2CCCCC2)CC1` (stereo unspecified), the fluorescence intensity was inactive: 5250. With `CSc1ccccc1C(=O)NCC1(N2CCCCC2)CCCCC1` the figure was inactive: 7350; with `Cc1cccc(NC2(C#N)CCN(Cc3ccccc3)CC2)c1`, inactive: 3610; with `O=C(NCC1(N2CCCCC2)CCCCC1)c1ccc(=O)[nH]c1`, inactive: 6030. To `CCCCn1nnnc1C(CC)N1CCC(n2c(=O)[nH]c3ccccc32)CC1` (stereo unspecified) belongs inactive: 5790; to `CCCCn1nnnc1C(c1cccs1)N1CCC(n2c(=O)[nH]c3ccccc32)CC1` (stereo unspecified), inactive: 4400. As to `COc1ccc(C(=O)NCC2(N3CCCCC3)CCCCC2)cc1`, the fluorescence intensity was inactive: 8680. With `CC(C)(C)OC(=O)N1CCC(N(C(=O)c2ccccc2)c2ccc(F)cc2)CC1` the figure was inactive: 3920. To `COc1ccc(C(=O)NCC2(N3CCCCC3)CCCCC2)c(OC)c1OC` belongs inactive: 5370; to `CCC(c1nnnn1C1CCCC1)N1CCC(n2c(=O)[nH]c3ccccc32)CC1` (stereo unspecified), inactive: 5080; to `CCOC(=O)N1CCC(Nc2ccc(OC)cc2)CC1`, inactive: 2550.

Regarding `CCCCn1nnnc1C(c1ccc(OC)cc1)N1CCC(n2c(=O)[nH]c3ccccc32)CC1` (stereo unspecified), the fluorescence intensity was inactive: 4450.

For the molecule `O=C(NCC1(N2CCCCC2)CCCCC1)c1ccc(Cl)s1`, the fluorescence intensity was inactive: 5150.

On to `N#CC1(Nc2ccccc2)CCN(Cc2ccccc2)CC1`, for which the fluorescence intensity was inactive: 3810. To `O=c1[nH]c2ccccc2n1C1CCN(C(c2cc3ccccc3o2)c2nnnn2C2CCCCC2)CC1` (stereo unspecified) belongs inactive: 5900; to `O=C(OC1CN2CCC1CC2)C1c2ccccc2Oc2ccccc21` (stereo unspecified), inactive: 9610; to `COc1ccc(Cl)cc1C(=O)NCC1(N2CCOCC2)CCCCC1`, inactive: 9000.

Regarding `O=C(NCC1(N2CCOCC2)CCCCC1)c1cc2ccccc2o1`, the fluorescence intensity was inactive: 3930. With `O=C(NCC1(N2CCCCC2)CCCCC1)c1ccc(Cl)nc1` the figure was inactive: 7770. With `O=c1[nH]c2ccccc2n1C1CCN(C(c2ccccc2OC(F)(F)F)c2nnnn2C2CCCCC2)CC1` (stereo unspecified) the figure was inactive: 5170; with `Cc1cc(C)cc(N(C(=O)c2ccccc2)C2CCN(C(=O)OC(C)(C)C)CC2)c1`, inactive: 3730; with `CCCCn1nnnc1C(c1ccnc2ccccc12)N1CCC(n2c(=O)[nH]c3ccccc32)CC1` (stereo unspecified), inactive: 5690. Consider `COc1cc(OC)c(C(=O)NCC2(N(C)C)CCCCC2)cc1OC`, for which the fluorescence intensity was inactive: 3010.

Consider `O=C(NCC1(N2CCOCC2)CCCCC1)c1cc(F)c(F)cc1Cl`, for which the fluorescence intensity is inactive: 5480. To `CCC(c1nnnn1C(C)(C)C)N1CCC(n2c(=O)[nH]c3ccccc32)CC1` (stereo unspecified) belongs inactive: 5760; to `COc1ccc(CN(CCCl)CCCl)cc1Cl`, inactive: 4140; to `CN(C)c1cccc(C(=O)NCC2(N3CCCCC3)CCCCC2)c1`, inactive: 5460.

Take `CCCCn1nnnc1C(c1ccccc1OC(F)(F)F)N1CCC(n2c(=O)[nH]c3ccccc32)CC1` (stereo unspecified): the fluorescence intensity was inactive: 6030. With `CC(C)c1ccc(NC2CCN(C(=O)OC(C)(C)C)CC2)cc1` the figure was inactive: 4420; with `Cc1ccc(C(=O)NCC2(N(C)C)CCCCC2)o1`, inactive: 3670; with `CCCOc1ccc(C(=O)NCC2(N(C)C)CCCCC2)cc1OC`, inactive: 3370. Take `COc1ccc(C(c2nnnn2C2CCCC2)N2CCC(n3c(=O)[nH]c4ccccc43)CC2)cc1` (stereo unspecified): the fluorescence intensity is inactive: 5860. With `CN1CCC(Nc2cccc(F)c2)CC1` the figure was inactive: 11000; with `O=C(NCC1(N2CCCCC2)CCCCC1)c1cncc(Br)c1`, inactive: 4620. With `O=C(NCC1(N2CCCCC2)CCCCC1)c1cccc([N+](=O)[O-])c1` the figure was inactive: 3420. To `CSc1ccc(C(=O)NCC2(N3CCOCC3)CCCCC2)cc1` belongs inactive: 4480.

Turning to `CCN1CCC(Nc2ccc(Cl)cc2)CC1`, the fluorescence intensity was inactive: 3890. To `O=c1[nH]c2ccccc2n1C1CCN(C(c2ccccc2OC(F)(F)F)c2nnnn2C2CCCC2)CC1` (stereo unspecified) belongs inactive: 5910; to `N#CC1(Nc2ccccc2)CCN(CCc2ccccc2)CC1`, inactive: 3060; to `CC(C)(C)n1nnnc1C(c1ccccc1OC(F)(F)F)N1CCC(n2c(=O)[nH]c3ccccc32)CC1` (stereo unspecified), inactive: 4410. To `O=C(NCC1(N2CCCCC2)CCCCC1)c1ccc(OC(F)F)cc1` belongs inactive: 11200; to `COc1ccc(NC2CCN(C(=O)OC(C)(C)C)CC2)cc1`, inactive: 4360; to `CN1CCN(CCOC(=O)C(O)(c2ccccc2)c2ccccc2)CC1`, inactive: 8670. To `CCCCn1nnnc1C(c1cccc2ccccc12)N1CCC(n2c(=O)[nH]c3ccccc32)CC1` (stereo unspecified) belongs inactive: 5620. Turning to `O=C(NCC1(N2CCOCC2)CCCCC1)c1cc(=O)[nH]c2ccccc12`, the fluorescence intensity was inactive: 2400.

In the case of `COc1cc(C(=O)NCC2(N3CCCCC3)CCCCC2)ccc1OC(F)F`, the fluorescence intensity is inactive: 13300.

On to `O=C(NCC1(N2CCCCC2)CCCCC1)c1cccc(C(F)(F)F)c1`, for which the fluorescence intensity is inactive: 6010.

`CC(C)(C)OC(=O)N1CCC(N(C(=O)c2ccccc2)c2ccc(Cl)cc2)CC1`: the fluorescence intensity is inactive: 3560. To `N#Cc1ccc(C(=O)NCC2(N3CCCCC3)CCCCC2)cc1` belongs inactive: 4240.
